Anti-infective test results gathered from many reports (values: NIAID ChemDB through PubChem).

Shared fields: target-level tests; species: HIV-1; target: Protease; method: HPLC; endpoint: IC50

ICn: concentration for n% inhibition.

compound	strain	value
CCCCCC/C=C/CCCCCCCc1cccc(O)c1C(=O)O	-	24.9 µM
Cc1cn([C@H]2C[C@H](N=[N+]=[N-])[C@@H](COC(=O)CCCCC(=O)O[C@H]3CC[C@]4(C)[C@H]5CC=C6[C@@H]7CC(C)(C)CC[C@]7(C(=O)O)CC[C@@]6(C)[C@]5(C)CC[C@H]4C3(C)C)O2)c(=O)[nH]c1=O	-	3.2 µM
CC(C)[C@H](NC(=O)[C@H](Cc1cccc2ccccc12)CS(=O)(=O)C(C)(C)C)C(=O)N[C@@H](Cc1ccccc1)[C@H](N)[C@H](O)[C@H](Cc1ccccc1)NC(=O)[C@@H](NC(=O)[C@H](Cc1cccc2ccccc12)CS(=O)(=O)C(C)(C)C)C(C)C	D34	0.0021 µM
CC(C)[C@H](NC(=O)C1Cc2ccccc2CN1)C(=O)N[C@@H](CC1CCCCC1)[C@@H](O)CC(=O)N[C@@H](C)C(=O)N[C@@H](Cc1ccccc1)C(N)=O	-	0.017 µM
CCCCCCCCCCCCCCCc1cccc(O)c1C(=O)O	-	10.2 µM
CC(C)[C@H](NC(=O)[C@H](Cc1cccc2ccccc12)CS(=O)(=O)C(C)(C)C)C(=O)N[C@@H](Cc1ccccc1)[C@@H](O)[C@@H](N=[N+]=[N-])[C@H](Cc1ccccc1)NC(=O)[C@@H](NC(=O)[C@H](Cc1cccc2ccccc12)CS(=O)(=O)C(C)(C)C)C(C)C	D34	0.06 µM
C[C@H](Cc1cc2c(cc1O)OCO2)[C@H](C)Cc1cc2c(cc1O)OCO2	-	5.6 µM
CC(C)[C@H](NC(=O)C(CN)Cc1ccccc1)C(=O)N[C@@H](Cc1ccccc1)[C@@H](O)[C@H](O)[C@H](Cc1ccccc1)NC(=O)[C@@H](NC(=O)C(CN)Cc1ccccc1)C(C)C	D34	0.00025 µM
COC(=O)[C@]12CC[C@@H](C)[C@H](C)[C@H]1C1=CC[C@@H]3[C@@]4(C)CC[C@H](O)C(C)(C)[C@@H]4CC[C@@]3(C)[C@]1(C)CC2	-	14 µM
CC1(C)CC[C@]2(C(=O)O)CC[C@]3(C)C(=CC[C@@H]4[C@@]5(C)CC[C@H](O)C(C)(C)[C@@H]5CC[C@]43C)[C@@H]2C1	-	8 µM
COC(=O)CCCC(=O)O[C@H]1CC[C@@]2(C)C(CC[C@]3(C)C2CC=C2C4[C@@H](C)[C@H](C)CC[C@]4(C(=O)OC)CC[C@]23C)C1(C)C	-	>50 µM
COc1cc(O)cc(O)c1C(=O)/C=C/c1ccc(O)cc1	-	>100 µM
CC1(C)CC[C@]2(C)CC[C@]3(C)C(=CC[C@@H]4[C@@]5(C)CC[C@H](O)C(C)(C)[C@@H]5CC[C@]43C)[C@@H]2C1	-	>100 µM
COc1ccc(C(O)C(C)Oc2ccc([C@H]3O[C@H](c4ccc(OC(C)C(O)c5ccc(OC)c(OC)c5)c(OC)c4)[C@H](C)[C@H]3C)cc2OC)cc1OC	-	38.9 µM
CC1(C)CC[C@]2(C(=O)O)CC[C@]3(C)C(=CC[C@@H]4[C@@]5(C)CC/C(=N\O)C(C)(C)[C@@H]5CC[C@]43C)[C@@H]2C1	-	5.5 µM
C[C@H]1[C@H](C)CC[C@]2(C(=O)O)CC[C@]3(C)C(=CC[C@@H]4[C@@]5(C)CC[C@H](OC(=O)CCC(=O)O)C(C)(C)[C@@H]5CC[C@]43C)[C@H]12	-	6 µM
CC(C)[C@H](NC(=O)[C@H](Cc1cc[n+]([O-])cc1)CS(=O)(=O)C(C)(C)C)C(=O)N[C@@H](Cc1ccccc1)[C@@H](O)[C@H](O)[C@H](Cc1ccccc1)NC(=O)[C@@H](NC(=O)[C@H](Cc1cc[n+]([O-])cc1)CS(=O)(=O)C(C)(C)C)C(C)C	D34	0.007 µM
CC(C)C[C@H](NC[C@H](CC1CCCCC1)NC(=O)[C@@H](NC(=O)C1Cc2ccccc2CN1)C(C)C)C(=O)N[C@@H](CC(C)C)C(=O)N[C@@H](Cc1ccccc1)C(N)=O	-	0.08 µM
C[C@H]1[C@H](C)CC[C@]2(C)CC[C@]3(C)C(=CC[C@@H]4[C@@]5(C)CC[C@H](O)C(C)(C)[C@@H]5CC[C@]43C)[C@H]12	-	80 µM
O=C(CCc1ccccc1)c1c(O)cc(O)cc1O	-	>100 µM
CC(C)[C@H](NC(=O)[C@H](Cc1ccccc1)NC(=O)[C@H](O)[C@@H](O)[C@H](O)[C@H](O)CO)C(=O)N[C@@H](Cc1ccccc1)[C@@H](O)[C@H](O)[C@H](Cc1ccccc1)NC(=O)[C@@H](NC(=O)[C@H](Cc1ccccc1)NC(=O)[C@H](O)[C@@H](O)[C@H](O)[C@H](O)CO)C(C)C	D34	0.0009 µM
COc1cc(O)cc(O)c1C(=O)/C=C/c1ccccc1	-	>100 µM
C=C(C)[C@@H]1CC[C@]2(C(=O)OC)CC[C@]3(C)[C@H](CC[C@@H]4[C@@]5(C)CC[C@H](O)C(C)(C)[C@@H]5CC[C@]43C)[C@@H]12	-	>25 µM

Again, the opening 2 rows:

compound,strain,value
CCCCCC/C=C/CCCCCCCc1cccc(O)c1C(=O)O,-,24.9 µM
Cc1cn([C@H]2C[C@H](N=[N+]=[N-])[C@@H](COC(=O)CCCCC(=O)O[C@H]3CC[C@]4(C)[C@H]5CC=C6[C@@H]7CC(C)(C)CC[C@]7(C(=O)O)CC[C@@]6(C)[C@]5(C)CC[C@H]4C3(C)C)O2)c(=O)[nH]c1=O,-,3.2 µM

Neighbouring rows are from separate reports. An empty or dashed field is not shown.